In one assay the test system is Xanthomonas oryzae. Put plainly: microbe, parasite or virus in culture. Type of assay: cell-based.
Assay [1] concerns Staphylococcus aureus FDA 209P. In words: Antimicrobial spectrum, agar dilution MIC. Type of assay: cell-based. The following applies: FDA209P, agar dilution method.

In brackets after ≈: the same amount, converted by molar mass.

As to `N#CN=[N+]([O-])c1ccc(C(=O)O)cc1` [calvatic acid, p-carboxyphenylazoxycarbonitrile], the figures for the MIC (in the assay on Xanthomonas oryzae; in assay [1]) were 3.12 µg/mL (≈ 16.3 µM) and 6.25 µg/mL (≈ 32.7 µM), respectively.

These data come from patent US3980522A, “Production of a new antibiotic, calvatic acid” (Zaidan Hojin Biseibutsu Kagaku Kenkyu Kai, priority 1973, dated 1976).
